Anti-infective test results gathered from many reports (values: NIAID ChemDB through PubChem).

Common to all: whole-cell or culture tests

a–b is a range or a potency band.

SMILES,endpoint,strain or isolate,species,mutations,read by,cell line,value
CC(C)Nc1nc(C(=O)N2c3cccc(O)c3NC3=C(C(=O)CC(C)(C)C3)C2c2ccc(OCc3ccccc3)cc2F)cs1,EC50,1b,Hepatitis C virus,-,luciferase / reporter gene / replicon,-,4.33 µM
C[C@H]1Cc2c(n3ncc(Cc4ccccc4)c3n(-c3ccc(-c4ncnn4C)cc3)c2=O)CN1C(=O)c1ccc(Br)c(C(F)(F)F)c1,EC50,-,Hepatitis B virus,-,luminescence,HepG2.117,0.05–0.5 µM
CC(=O)N1c2cccc(O)c2NC2=C(C(=O)CC(C)(C)C2)C1c1ccc(OCc2cccc(Br)c2)cc1Cl,EC50,1b,Hepatitis C virus,-,luciferase / reporter gene / replicon,-,19.22 µM
C[C@@H](NC(=O)c1c2n(c(=O)n1-c1ccc(OCC(F)(F)F)cc1)CCN(C(=O)c1ccc(Br)c(Cl)c1)C2)c1ccccc1F,EC50,-,Hepatitis B virus,-,PCR,HepG2.117,0.1–0.5 µM
O=C(N[C@@H](C(=O)N1CCC[C@H]1c1ncc(-c2ccc(-c3ccc(-c4cnc([C@@H]5CCCN5C(=O)[C@H](NC(=O)C5CC5)c5ccccc5)s4)cc3)cc2)s1)c1ccccc1)C1CC1,fold resistance,genotype 2a,Hepatitis C virus,T24A,luciferase / reporter gene,Huh7.5,65
Cn1ccc2cc(-n3c(C(=O)NCc4ccccc4)c4n(c3=O)CCN(C(=O)c3ccc(Br)c(Cl)c3)C4)ccc21,EC50,-,Hepatitis B virus,-,PCR,HepG2.117,0.1–0.5 µM
Cc1nc(-c2ccc(-n3c(=O)c4c(n5ncc(CC(C)C)c35)CN(C(=O)c3ccc(Br)c(C(F)(F)F)c3)[C@@H](C)C4)cc2)n[nH]1,EC50,-,Hepatitis B virus,-,luminescence,HepG2.117,0.05–0.5 µM
COC(=O)N[C@H](C(=O)N1CCCC1c1ncc(-c2ccc(-c3ccc(-c4cnc([C@@H]5CC(C)CN5C(=O)[C@@H](NC(=O)CO)C(C)C)[nH]4)cc3)cc2)[nH]1)C(C)C,EC50,1b,Hepatitis C virus,L31F,luciferase,ET,0.000012 µM
CC(=O)N1c2cccc(O)c2NC2=C(C(=O)CC(C)(C)C2)C1c1ccccn1,EC50,1b,Hepatitis C virus,-,luciferase / reporter gene / replicon,-,>100 µM
C[C@H]1Cc2c(n3ncc(Cc4ccccc4)c3n(-c3ccc(-c4nn(C)c(=O)[nH]4)cc3)c2=O)CN1C(=O)c1ccc(Br)c(C(F)(F)F)c1,EC50,-,Hepatitis B virus,-,luminescence,HepG2.117,0.05–0.5 µM
C[C@@H](NC(=O)c1c2n(c(=O)n1-c1ccc(OC3CC3)cc1)CCN(C(=O)c1ccc(Br)c(Cl)c1)C2)c1ccc(OC(F)(F)F)cc1,EC50,-,Hepatitis B virus,-,PCR,HepG2.117,0.5–5 µM
CNC(=O)c1ccc(-n2c(=O)c3c(n4ncc(Cc5ccsc5)c24)CN(C(=O)c2ccc(Br)c(C(F)(F)F)c2)CC3)cc1,EC50,-,Hepatitis B virus,-,luminescence,HepG2.117,≤0.05 µM
CCCCCCCNC(=S)Nc1ccc2c(c1)Cc1cc(Br)ccc1-2,EC50,-,Hepatitis C virus,-,reporter gene / fluorescence,Ava5-EG(delta4AB)SEAP,0.001–1 µM
Cn1cc(C2Nc3cccc(O)c3NC3=C2C(=O)CC(C)(C)C3)c2ccccc21,EC50,1b,Hepatitis C virus,-,luciferase / reporter gene / replicon,-,>10 µM
COc1ccc(-n2c(C(=O)NCc3ccc(C)c(OC)c3)c3n(c2=O)CCN(C(=O)c2ccc(Cl)c(Cl)c2)C3)cc1,EC50,-,Hepatitis B virus,-,PCR,HepG2.117,0.5–5 µM
CC1(C)CC(=O)C2=C(C1)Nc1c(O)cccc1N(C(=O)CCC(=O)N1CCc3ccccc3C1)C2c1ccc(OCc2ccccc2)cc1Cl,EC50,1b,Hepatitis C virus,-,luciferase / reporter gene / replicon,-,1.7 µM
C[C@H](NC(=O)c1c2n(c(=O)n1-c1ccc(OCC(F)(F)F)cc1)CCN(C(=O)c1ccc(Br)c(Cl)c1)C2)c1ccc(C#N)cc1F,EC50,-,Hepatitis B virus,-,PCR,HepG2.117,0.5–5 µM
CC(C)Cc1cnn2c3c(c(=O)n(-c4ccc(-c5nncn5C)cc4)c12)C[C@@H](C)N(C(=O)c1ccc(Br)c(Cl)c1)C3,EC50,-,Hepatitis B virus,-,luminescence,HepG2.117,≤0.05 µM
Cc1cc(C(=O)N2c3cccc(O)c3NC3=C(C(=O)CC(C)(C)C3)[C@@H]2c2ccc(OCc3ccccc3)cc2F)no1,EC50,1b,Hepatitis C virus,-,luciferase / reporter gene / replicon,-,0.87 µM
CC1CCC(C(=O)N(c2cc(C#CC(C)(C)C)sc2C(=O)O)C2CCC(O)CC2)CC1,fold resistance,Con1 (gt 1b),Hepatitis C virus,M423I,luciferase,Huh7,5.6
CC(C)CN1CCCn2c(c3n(c2=O)CCN(C(=O)c2ccc(Br)c(Cl)c2)C3)C1=O,EC50,-,Hepatitis B virus,-,PCR,HepG2.117,>5 µM
CC1(C)CC(=O)C2=C(C1)Nc1c(O)cccc1N(C(=O)CCC(=O)N[C@H](Cc1cnc[nH]1)C(=O)O)C2c1ccc(OCc2ccccc2)cc1Cl,EC50,1b,Hepatitis C virus,-,luciferase / reporter gene / replicon,-,>100 µM
Cn1nnc(-c2ccc(-n3c(=O)c4c(n5ncc(Cc6ccccc6)c35)CN(C(=O)c3ccc(Br)c(Cl)c3)CC4)cc2)n1,EC50,-,Hepatitis B virus,-,luminescence,HepG2.117,≤0.05 µM
COc1ccc(C(=O)N2c3cccc(O)c3NC3=C(C(=O)CC(C)(C)C3)[C@@H]2c2ccc(OCc3ccccc3)cc2F)nc1Br,EC50,1b,Hepatitis C virus,-,luciferase / reporter gene / replicon,-,1.14 µM
NC(=S)Nc1cccc(OCCCCCCOc2ccc(-c3ccccc3)cc2)c1,EC50,-,Hepatitis C virus,-,reporter gene / fluorescence,Ava5-EG(delta4AB)SEAP,0.001–1 µM
COC1C=CC(n2c(C(=O)NCc3cccc(F)c3)c3n(c2=O)CCN(C(=O)c2ccc(Br)c(Cl)c2)C3)=CC1,EC50,-,Hepatitis B virus,-,PCR,HepG2.117,0.1–0.5 µM
NC(=S)Nc1cccc(OCCCCCOc2ccc(-c3ccc(Br)cc3)cc2)c1,EC50,-,Hepatitis C virus,-,reporter gene / fluorescence,Ava5-EG(delta4AB)SEAP,0.001–1 µM
CC1(C)CC(=O)C2=C(C1)Nc1c(O)cccc1N(C(=O)c1ccc(=O)[nH]n1)C2c1ccc(OCc2ccccc2)cc1F,EC50,1b,Hepatitis C virus,-,luciferase / reporter gene / replicon,-,2.98 µM
C[C@H](Oc1ccc(-n2c(C(=O)NCc3ccccc3)c3n(c2=O)CCN(C(=O)c2ccc(Br)c(Cl)c2)C3)cc1)C(F)(F)F,EC50,-,Hepatitis B virus,-,PCR,HepG2.117,0.5–5 µM
CCCCN1CCN(C(=S)Nc2cccc(OCc3ccccc3)c2)C1=S,EC50,-,Hepatitis C virus,-,reporter gene / fluorescence,Ava5-EG(delta4AB)SEAP,0.001–1 µM

A second listing of 4 rows from above:

{"SMILES": "C[C@H](Oc1ccc(-n2c(C(=O)NCc3ccccc3)c3n(c2=O)CCN(C(=O)c2ccc(Br)c(Cl)c2)C3)cc1)C(F)(F)F", "endpoint": "EC50", "species": "Hepatitis B virus", "read by": "PCR", "cell line": "HepG2.117", "value": "0.5–5 µM"}
{"SMILES": "CC1(C)CC(=O)C2=C(C1)Nc1c(O)cccc1N(C(=O)CCC(=O)N1CCc3ccccc3C1)C2c1ccc(OCc2ccccc2)cc1Cl", "endpoint": "EC50", "strain or isolate": "1b", "species": "Hepatitis C virus", "read by": "luciferase / reporter gene / replicon", "value": "1.7 µM"}
{"SMILES": "CNC(=O)c1ccc(-n2c(=O)c3c(n4ncc(Cc5ccsc5)c24)CN(C(=O)c2ccc(Br)c(C(F)(F)F)c2)CC3)cc1", "endpoint": "EC50", "species": "Hepatitis B virus", "read by": "luminescence", "cell line": "HepG2.117", "value": "≤0.05 µM"}
{"SMILES": "C[C@H]1Cc2c(n3ncc(Cc4ccccc4)c3n(-c3ccc(-c4nn(C)c(=O)[nH]4)cc3)c2=O)CN1C(=O)c1ccc(Br)c(C(F)(F)F)c1", "endpoint": "EC50", "species": "Hepatitis B virus", "read by": "luminescence", "cell line": "HepG2.117", "value": "0.05–0.5 µM"}

Neighbouring rows are from separate reports. ECn: concentration that inhibits the pathogen or its effect by n%. Blank or dashed fields: not listed here. Fold resistance has wild type as its base.